# B1: … (peptide)
# peptide: RVLEDGVNY
# modifications: not checked
# Target: HLA-A1101 (human)
# Assay: competition vs 125I probe peptide, purified HLA-A*1101
# Settings: remark: other sources report otherwise
binder,measurement,value
B1,Ki,893 nM
